Earlier results in patent US20040186089A1 (priority 2001, published 2004).

Tested on: Bacillus cereus
Settings: known; broad-spectrum β-lactamase producer; cited from earlier work

| Molecule | resistance of Bacillus cereus |
| --- | --- |
| Penicillin | resistant |
| CC1(C)S[C@@H]2[C@H](NC(=O)[C@H](N)c3ccccc3)C(=O)N2[C@H]1C(=O)O [ampicillin] | resistant |
